# HIV-1 5' UTR: DMS reactivities by position

The 5' region of HIV-1 NL4-3 RNA (positions 1-437):
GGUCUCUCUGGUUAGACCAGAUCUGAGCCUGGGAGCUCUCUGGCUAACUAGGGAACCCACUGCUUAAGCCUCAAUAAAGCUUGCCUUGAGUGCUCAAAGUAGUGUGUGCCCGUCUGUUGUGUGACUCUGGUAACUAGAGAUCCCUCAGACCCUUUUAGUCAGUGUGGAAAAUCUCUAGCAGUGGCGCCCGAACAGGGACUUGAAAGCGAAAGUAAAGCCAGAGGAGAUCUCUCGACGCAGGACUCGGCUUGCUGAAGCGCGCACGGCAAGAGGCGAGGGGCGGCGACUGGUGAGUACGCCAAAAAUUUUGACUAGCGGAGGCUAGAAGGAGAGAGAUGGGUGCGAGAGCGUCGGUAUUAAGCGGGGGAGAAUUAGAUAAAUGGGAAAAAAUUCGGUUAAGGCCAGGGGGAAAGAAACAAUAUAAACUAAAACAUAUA

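Randomly mutated transcripts starting with one, two or three G (1G, 2G, 3G), capped or uncapped, were folded for 30 min at 37 °C. Monomer and dimer bands were cut from native gels after folding in high salt (300 mM KCl, 5 mM MgCl2) or low salt (40 mM KCl, 0.1 mM MgCl2). Each band was probed in the gel with DMS (170 mM, 15 min, 37 °C), with ethanol as control, and sequenced.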

Scale: normalised reactivity, A and C only; low values point to paired or protected bases, higher values to unpaired ones. One numbering serves 1G, 2G and 3G. A position is written with its base.

With A198 (domain PBS) the assay gave 1G capped low-salt dimer 0.62; 3G uncapped low-salt monomer 0.61.
With A399 the assay gave 1G capped low-salt dimer 0.40; 3G uncapped low-salt monomer 0.21.
With C85 (domain PolyA) the assay gave 1G capped low-salt dimer 0.41; 3G uncapped low-salt monomer 0.15.
With A34 (domain TAR) the assay gave 1G capped low-salt dimer 0.96; 3G uncapped low-salt monomer 1.27.
With A437 the assay gave 1G capped low-salt dimer 0.05; 3G uncapped low-salt monomer 0.03.
With A171 (domain PBS) the assay gave 1G capped low-salt dimer 0.46; 3G uncapped low-salt monomer 0.46.
With C56 (domain TAR) the assay gave 1G capped low-salt dimer 0.14; 3G uncapped low-salt monomer 0.03.
With A50 (domain TAR) the assay gave 1G capped low-salt dimer 0.28; 3G uncapped low-salt monomer 0.13.
With A368 the assay gave 1G capped low-salt dimer 0.85; 3G uncapped low-salt monomer 0.93.
With C260 (domain SL1) the assay gave 1G capped low-salt dimer 0.44; 3G uncapped low-salt monomer 0.42.
With A324 (domain SL3) the assay gave 1G capped low-salt dimer 0.09; 3G uncapped low-salt monomer 0.12.
With C23 (domain TAR) the assay gave 1G capped low-salt dimer 1.08; 3G uncapped low-salt monomer 1.50.
With A169 (domain PBS) the assay gave 1G capped low-salt dimer 0.70; 3G uncapped low-salt monomer 0.75.
With A293 (domain SL2) the assay gave 1G capped low-salt dimer 0.86; 3G uncapped low-salt monomer 0.73.
With A305 the assay gave 1G capped low-salt dimer 0.72; 3G uncapped low-salt monomer 0.75.
With C316 (domain SL3) the assay gave 1G capped low-salt dimer 0.06; 3G uncapped low-salt monomer 0.14.
With A411 the assay gave 1G capped low-salt dimer 0.81; 3G uncapped low-salt monomer 0.81.
With A326 the assay gave 1G capped low-salt dimer 0.93; 3G uncapped low-salt monomer 0.86.
With A98 (domain PolyA) the assay gave 1G capped low-salt dimer 0.32; 3G uncapped low-salt monomer 0.63.
With A389 the assay gave 1G capped low-salt dimer 0.19; 3G uncapped low-salt monomer 0.14.
With C343 (domain AUG) the assay gave 1G capped low-salt dimer 0.29; 3G uncapped low-salt monomer 0.46.
With A374 the assay gave 1G capped low-salt dimer 0.51; 3G uncapped low-salt monomer 0.42.
With C229 (domain CU) the assay gave 1G capped low-salt dimer 0.15; 3G uncapped low-salt monomer 0.35.
With A336 (domain AUG) the assay gave 1G capped low-salt dimer 0.82; 3G uncapped low-salt monomer 0.73.
With C40 (domain TAR) the assay gave 1G capped low-salt dimer 0.05; 3G uncapped low-salt monomer 0.03.
With C127 (domain PAS) the assay gave 1G capped low-salt dimer 0.05; 3G uncapped low-salt monomer 0.03.
With C189 (domain PBS) the assay gave 1G capped low-salt dimer 0.15; 3G uncapped low-salt monomer 0.07.
With A296 (domain SL2) the assay gave 1G capped low-salt dimer 0.61; 3G uncapped low-salt monomer 0.63.
With A138 (domain PBS) the assay gave 1G capped low-salt dimer 0.11; 3G uncapped low-salt monomer 0.13.
With A388 the assay gave 1G capped low-salt dimer 0.09; 3G uncapped low-salt monomer 0.07.
With C152 (domain PBS) the assay gave 1G capped low-salt dimer 0.88; 3G uncapped low-salt monomer 0.85.
With C238 the assay gave 1G capped low-salt dimer 0.51; 3G uncapped low-salt monomer 0.85.
With C160 (domain PBS) the assay gave 1G capped low-salt dimer 0.05; 3G uncapped low-salt monomer 0.10.
With C349 the assay gave 1G capped low-salt dimer 0.30; 3G uncapped low-salt monomer 0.26.
With A416 the assay gave 1G capped low-salt dimer 0.42; 3G uncapped low-salt monomer 0.41.
With A170 (domain PBS) the assay gave 1G capped low-salt dimer 0.53; 3G uncapped low-salt monomer 0.55.
With A180 (domain PBS) the assay gave 1G capped low-salt dimer 0.56; 3G uncapped low-salt monomer 0.66.
With A161 (domain PBS) the assay gave 1G capped low-salt dimer 0.49; 3G uncapped low-salt monomer 0.51.
With C150 (domain PBS) the assay gave 1G capped low-salt dimer 0.05; 3G uncapped low-salt monomer 0.07.
With C300 the assay gave 1G capped low-salt dimer 0.08; 3G uncapped low-salt monomer 0.05.
With C125 (domain PAS) the assay gave 1G capped low-salt dimer 0.10; 3G uncapped low-salt monomer 0.06.
With A356 the assay gave 1G capped low-salt dimer 1.01; 3G uncapped low-salt monomer 0.97.
With A191 (domain PBS) the assay gave 1G capped low-salt dimer 0.39; 3G uncapped low-salt monomer 0.41.
With A74 (domain PolyA) the assay gave 1G capped low-salt dimer 0.67; 3G uncapped low-salt monomer 0.99.
With A140 (domain PBS) the assay gave 1G capped low-salt dimer 0.34; 3G uncapped low-salt monomer 0.45.
With A168 (domain PBS) the assay gave 1G capped low-salt dimer 0.45; 3G uncapped low-salt monomer 0.49.
With A370 the assay gave 1G capped low-salt dimer 0.51; 3G uncapped low-salt monomer 0.52.
With C28 (domain TAR) the assay gave 1G capped low-salt dimer 0.07; 3G uncapped low-salt monomer 0.03.

The last 3 entries again:

position,domain,1G capped low-salt dimer,3G uncapped low-salt monomer
A168,PBS,0.45,0.49
A370,none,0.51,0.52
C28,TAR,0.07,0.03

From the data files of Ye et al. 2022, doi:10.1038/s41594-022-00746-2.